Compound potency records, mixed from different reports. Data source: NIAID ChemDB in PubChem.

Common to all: growth or infection tests; agent: Mycobacterium avium; read-out: MIC

An empty or dashed field is not shown.

SMILES | strain | method | setting | value
CSc1cc(C(N)=O)cc(Br)n1 | 80/72 | - | - | >1000 µM
CCCCCC(N)=NC[C@H]1O[C@H](O[C@H]2O[C@H](CN=C(N)CCCCC)[C@@H](O)[C@H](O)[C@H]2O)[C@H](O)[C@@H](O)[C@@H]1O | NJ3404 | - | - | >128 µg/mL
COc1ccccc1/C=N/N=C(\N)c1ccncc1 | Isoniazid/rifampicin/ofloxacin-resistant | - | - | 64 µg/mL
CCCCCCCC(O)CC(=O)CCc1ccc(O)c(OC)c1 | - | - | - | 50 µg/mL
O=C(Nc1ccc(Cl)c(Cl)c1)c1ncccc1S | CNCTC MY330/88 | - | - | 62.5 µM
O=C(Oc1cc(Cl)ccc1C(=O)Nc1ccc(Br)cc1)c1ccccc1 | 330/88 | broth dilution | 14 d | 4 µM
O=C(/C=C/c1ccccc1)Nc1ccccc1Cn1ccnc1 | 103317 | - | - | >16 µg/mL
NC(=S)N=Nc1c(S)n(-c2ccccc2)c2ccccc12 | CNCTC MY66/72 | - | - | 16 µM
CCCCCCCOc1ccccc1NC(=O)OCCN1CCOCC1 | MY330/88 | - | - | 62.5 µM
O=C(NCc1cccnc1)c1ccccc1O | ATCC 25291 | - | 21 d | 500 µM
Cc1c(-c2nc3cc(C(C)(C)C)cc(C(C)(C)C)c3o2)[nH]c2ccccc12 | MY330/88 | - | - | 250 µM
NC(N)=NC[C@H]1O[C@H](O[C@H]2O[C@H](CN=C(N)N)[C@@H](O)[C@H](O)[C@H]2O)[C@H](O)[C@@H](O)[C@@H]1O | NJ168 | - | - | >128 µg/mL
O=Cc1coc2ccccc2c1=O | MY330/88 | - | - | >1000 µM
CCCSc1ncnc2ccccc12 | D 5/93 | - | - | 125 µM
CCCCCN1C(=S)C(=O)c2ccccc21 | CNCTC D5/93 | - | - | 32 µM
CCCCCCCCOc1ccccc1NC(=O)OCCN1CCOCC1 | MY330/88 | - | - | 32 µM
N/C(=N\NC(=O)c1ccc(F)cc1)SCc1cccc(Cl)c1 | ATCC 19421 | - | - | >100 µg/mL
CCCCCCCCCCCCCCCCS(=O)(=O)NC[C@H]1O[C@H](O[C@H]2O[C@H](CNS(=O)(=O)CCCCCCCCCCCCCCCC)[C@@H](O)[C@H](O)[C@H]2O)[C@H](O)[C@@H](O)[C@@H]1O | NJ3350 | - | - | >64 µg/mL
NC(=S)c1cc(SCc2cccc([N+](=O)[O-])c2)ccn1 | CNCTC MY330/88 | - | - | 7.94 µM
CN1C(=S)C(=O)c2ccccc21 | CNCTC MY80/72 | - | - | 63 µM
CC(C)N=C(N)/N=C(\N)NOCCCOc1ccc(Cl)c(Cl)c1 | 3404-4 | - | - | 0.4 µg/mL
O=C(Oc1ccc(Cl)cc1)c1cnccn1 | 330/88 | - | 14 d | 500 µM
CCCCCCNC[C@H]1O[C@H](O[C@H]2O[C@H](CNCCCCCC)[C@@H](O)[C@H](O)[C@H]2O)[C@H](O)[C@@H](O)[C@@H]1O | NJ168 | - | - | >128 µg/mL
NC(=S)c1cc(SCc2cccc(Br)c2)ccn1 | CNCTC MY330/88 | - | - | 7.94 µM
CCSc1cc(C(N)=S)cc(Br)n1 | 80/72 | - | - | 500 µM
CCCCSc1ncnc2ccccc12 | CNCTC MY66/72 | - | - | 32 µM
CCCCCCCCNC[C@H]1O[C@H](O[C@H]2O[C@H](CNCCCCCCCC)[C@@H](O)[C@H](O)[C@H]2O)[C@H](O)[C@@H](O)[C@@H]1O | NJ3009 | - | - | 2 µg/mL
NC(=S)NNC(=O)c1ccc(Cl)cc1 | ATCC 19421 | - | - | >100 µg/mL
O=C(Nc1ccccc1Cn1ccnc1)c1ccc(-c2ccccc2)cc1 | 103317 | - | - | >16 µg/mL
Cc1cccc(C(=O)NCc2cccnc2)c1O | ATCC 25291 | - | 21 d | 500 µM
N#Cc1cc(SCc2cccc([N+](=O)[O-])c2)ccn1 | CNCTC MY330/88 | - | - | 251 µM
O=C(Nc1cccc(CN2CCOCC2)c1)c1ccc(-c2ccccc2)cc1 | 103317 | - | - | >16 µg/mL
O=C(NCc1ccccc1)c1ncccc1O | CNCTC MY330/88 | - | - | 250 µM
O=C(Oc1cc(Cl)ccc1C(=O)Nc1cccc(Cl)c1)c1cnccn1 | 330/88 | - | 14 d | 4 µM
O=C(Nc1cccc(Cn2ccnc2)c1)c1ccc(-c2ccccc2)cc1 | 103317 | - | - | >16 µg/mL
CCSc1cc(C(N)=O)cc(Cl)n1 | 80/72 | - | - | 1000 µM
Cc1ccc(NC(=O)c2ccccc2O)cc1 | CNCTC MY330/88 | - | - | 31 µM
CCCCCCCCCCCCCCCCSc1ncnc2ccccc12 | D 5/93 | - | - | >1000 µM
Cc1ccc2occ(C=O)c(=O)c2c1 | MY330/88 | - | - | 1000 µM
NC(=S)c1cc(SCc2ccccc2F)ccn1 | CNCTC MY330/88 | - | - | 15.85 µM
CCCCCCCCCCCCN(CCCCCCCCCCCC)C[C@H]1O[C@H](O[C@H]2O[C@H](CN(CCCCCCCCCCCC)CCCCCCCCCCCC)[C@@H](O)[C@H](O)[C@H]2O)[C@H](O)[C@@H](O)[C@@H]1O | NJ1854 | - | - | >128 µg/mL
N#Cc1cc(SCc2c(F)cccc2[N+](=O)[O-])ccn1 | CNCTC MY330/88 | - | - | 126 µM
N/C(=N\N=C\c1ccc(Cl)cc1)c1ccncc1 | Isoniazid/rifampicin/ofloxacin-resistant | - | - | 32 µg/mL
COc1cc(C(=O)N/N=C(\N)SCc2cccc(Cl)c2)cc(OC)c1OC | ATCC 19421 | - | - | >100 µg/mL
CN1CCN(Cc2cccc(NC(=O)/C=C/c3ccccc3)c2)CC1 | 103317 | - | - | 8 µg/mL
O=C(NCc1ccccc1)c1cc(Cl)cc(Cl)c1O | ATCC 25291 | - | 21 d | 125 µM
CCOc1cccc(NC(=O)OCCN(C)C)c1 | MY330/88 | - | - | >250 µM
Cc1ccc(CSc2ccnc(C#N)c2)cc1 | CNCTC MY330/88 | - | - | 30.9 µM
CCCCCCCSc1cc(C(N)=O)cc(SCCCCCC)n1 | 80/72 | - | - | >1000 µM
O=C(Oc1cc(Cl)ccc1C(=O)Nc1cccc(Cl)c1)c1ccccc1 | 330/88 | broth dilution | 14 d | 8 µM
CCCCSc1cc(C(N)=S)cc(Br)n1 | 80/72 | - | - | 250 µM
O=C(Oc1ccc(Cl)cc1C(=O)Nc1ccc(Br)cc1)c1ccccc1 | 330/88 | broth dilution | 14 d | 4 µM
O=C(NCc1ccccc1)c1cc(Br)cc(Br)c1O | ATCC 25291 | - | 14 d | 125 µM
O=C1C(=S)N(c2ccccc2)c2ccccc21 | CNCTC MY80/72 | - | - | 63 µM
O=C(NCc1cccnc1)c1ccc(Cl)cc1O | ATCC 25291 | - | 14 d | 250 µM
N/C(=N\N=C\c1ccccc1Br)c1ccncc1 | Isoniazid/rifampicin/ofloxacin-resistant | - | - | 64 µg/mL
CCCCCCSc1cc(C(N)=S)cc(SCCCC)n1 | 80/72 | - | - | 125 µM
O=C(/C=C/c1ccccc1)Nc1cccc(CN2CCOCC2)c1 | 103317 | - | - | 8 µg/mL
O=C(Nc1ccc(Cl)cc1)c1ccccc1O | CNCTC MY330/88 | - | - | 31 µM
O=C(Oc1cc(Cl)ccc1C(=O)Nc1cccc(Br)c1)c1cnccn1 | 330/88 | - | 21 d | 16 µM
O=C(Oc1ccc(Cl)cc1C(=O)Nc1cccc(Cl)c1)c1ccccc1 | 330/88 | broth dilution | 14 d | 4 µM
CC(=O)NC[C@H]1CN(c2ccc(N3CCS(=O)(=O)CC3)c(F)c2)C(=O)O1 | LPR | - | - | 4 µg/mL
Cc1ccc(NC(=O)c2ncccc2O)cc1 | CNCTC MY330/88 | - | - | 62.5 µM
CCCSc1cc(C(N)=S)cc(Cl)n1 | 80/72 | - | - | 250 µM
O=Cc1coc2ccc([N+](=O)[O-])cc2c1=O | MY330/88 | - | - | 500 µM
CN1CCN(Cc2ccc(NC(=O)/C=C/c3ccccc3)cc2)CC1 | 103317 | - | - | >16 µg/mL
Cc1cccc(C(N)=Nc2nc(-c3ccccn3)cc3ccccc23)c1 | SK-32 | - | - | 4 µg/mL
CSc1cc(C(N)=S)cc(Br)n1 | 80/72 | - | - | 500 µM
N#Cc1cc(SCc2ccc(F)cc2)ccn1 | CNCTC MY330/88 | - | - | 30.9 µM
O=C(Oc1cc(Cl)ccc1C(=O)Nc1ccc(Cl)cc1)c1ccccc1 | 330/88 | broth dilution | 14 d | 4 µM
CCCCCCCCOc1cccc(NC(=O)OCC[NH+]2CCCC2)c1 | MY330/88 | - | - | 16 µM
COC(=O)c1cnccn1 | 330/88 | - | 14 d | >500 µM
O=S(=O)(NC[C@H]1O[C@H](O[C@H]2O[C@H](CNS(=O)(=O)c3ccccc3)[C@@H](O)[C@H](O)[C@H]2O)[C@H](O)[C@@H](O)[C@@H]1O)c1ccccc1 | NJ3350 | - | - | >128 µg/mL
O=C(Nc1ccc(Br)cc1)c1ncccc1O | CNCTC MY330/88 | - | - | 32 µM
CCCCCCSc1cc(C(N)=S)cc(SCCCCC)n1 | 80/72 | - | - | 125 µM
CC(C)CC(NC(=O)c1nc2c(C(C)(C)C)cc(C(C)(C)C)cc2o1)C(=O)O | MY330/88 | - | - | 500 µM
Cc1ccc(C(=O)NNC(N)=S)cc1 | ATCC 19421 | - | - | >100 µg/mL
O=C(NCc1cccc(Cl)c1)c1ncccc1S | CNCTC MY330/88 | - | - | 8 µM
c1ccc(CSc2ncnc3ccccc23)cc1 | CNCTC MY66/72 | - | - | 125 µM
N/C(=N\NC(=O)c1ccc([N+](=O)[O-])cc1)SCc1cccc(Cl)c1 | ATCC 19421 | - | - | >100 µg/mL
O=C(NCc1ccc(F)cc1)c1ncccc1S | CNCTC MY330/88 | - | - | 16 µM

Repeating the final 6 entries:

{"SMILES": "CC(C)CC(NC(=O)c1nc2c(C(C)(C)C)cc(C(C)(C)C)cc2o1)C(=O)O", "strain": "MY330/88", "value": "500 µM"}
{"SMILES": "Cc1ccc(C(=O)NNC(N)=S)cc1", "strain": "ATCC 19421", "value": ">100 µg/mL"}
{"SMILES": "O=C(NCc1cccc(Cl)c1)c1ncccc1S", "strain": "CNCTC MY330/88", "value": "8 µM"}
{"SMILES": "c1ccc(CSc2ncnc3ccccc23)cc1", "strain": "CNCTC MY66/72", "value": "125 µM"}
{"SMILES": "N/C(=N\\NC(=O)c1ccc([N+](=O)[O-])cc1)SCc1cccc(Cl)c1", "strain": "ATCC 19421", "value": ">100 µg/mL"}
{"SMILES": "O=C(NCc1ccc(F)cc1)c1ncccc1S", "strain": "CNCTC MY330/88", "value": "16 µM"}

Conditions beyond the fields shown may differ between rows.